According to doi:10.1101/2021.10.26.465901 (bioRxiv, 2021):

Key:
[1] = biological target: the molecule itself; experiment: AUC
[2] = biological target: the molecule itself; experiment: SEC

B1: Mycobacterium tuberculosis UvrD1 (Rv0949), wild type (enzyme)
chain: not shown
How did the “stoichiometry N” value [1] turn out when B1 was run?
Its value is 4.

What about the “stoichiometry N” value [2] of the same protein?
The value was 2.
